# Reference: patent US9636379B2, “Compositions and methods for treating pruritus” (Washington University, priority 2007, dated 2017)
# Amino acid sequences for entries named in this document (tags omitted).
# UniProt O55017, whole entry: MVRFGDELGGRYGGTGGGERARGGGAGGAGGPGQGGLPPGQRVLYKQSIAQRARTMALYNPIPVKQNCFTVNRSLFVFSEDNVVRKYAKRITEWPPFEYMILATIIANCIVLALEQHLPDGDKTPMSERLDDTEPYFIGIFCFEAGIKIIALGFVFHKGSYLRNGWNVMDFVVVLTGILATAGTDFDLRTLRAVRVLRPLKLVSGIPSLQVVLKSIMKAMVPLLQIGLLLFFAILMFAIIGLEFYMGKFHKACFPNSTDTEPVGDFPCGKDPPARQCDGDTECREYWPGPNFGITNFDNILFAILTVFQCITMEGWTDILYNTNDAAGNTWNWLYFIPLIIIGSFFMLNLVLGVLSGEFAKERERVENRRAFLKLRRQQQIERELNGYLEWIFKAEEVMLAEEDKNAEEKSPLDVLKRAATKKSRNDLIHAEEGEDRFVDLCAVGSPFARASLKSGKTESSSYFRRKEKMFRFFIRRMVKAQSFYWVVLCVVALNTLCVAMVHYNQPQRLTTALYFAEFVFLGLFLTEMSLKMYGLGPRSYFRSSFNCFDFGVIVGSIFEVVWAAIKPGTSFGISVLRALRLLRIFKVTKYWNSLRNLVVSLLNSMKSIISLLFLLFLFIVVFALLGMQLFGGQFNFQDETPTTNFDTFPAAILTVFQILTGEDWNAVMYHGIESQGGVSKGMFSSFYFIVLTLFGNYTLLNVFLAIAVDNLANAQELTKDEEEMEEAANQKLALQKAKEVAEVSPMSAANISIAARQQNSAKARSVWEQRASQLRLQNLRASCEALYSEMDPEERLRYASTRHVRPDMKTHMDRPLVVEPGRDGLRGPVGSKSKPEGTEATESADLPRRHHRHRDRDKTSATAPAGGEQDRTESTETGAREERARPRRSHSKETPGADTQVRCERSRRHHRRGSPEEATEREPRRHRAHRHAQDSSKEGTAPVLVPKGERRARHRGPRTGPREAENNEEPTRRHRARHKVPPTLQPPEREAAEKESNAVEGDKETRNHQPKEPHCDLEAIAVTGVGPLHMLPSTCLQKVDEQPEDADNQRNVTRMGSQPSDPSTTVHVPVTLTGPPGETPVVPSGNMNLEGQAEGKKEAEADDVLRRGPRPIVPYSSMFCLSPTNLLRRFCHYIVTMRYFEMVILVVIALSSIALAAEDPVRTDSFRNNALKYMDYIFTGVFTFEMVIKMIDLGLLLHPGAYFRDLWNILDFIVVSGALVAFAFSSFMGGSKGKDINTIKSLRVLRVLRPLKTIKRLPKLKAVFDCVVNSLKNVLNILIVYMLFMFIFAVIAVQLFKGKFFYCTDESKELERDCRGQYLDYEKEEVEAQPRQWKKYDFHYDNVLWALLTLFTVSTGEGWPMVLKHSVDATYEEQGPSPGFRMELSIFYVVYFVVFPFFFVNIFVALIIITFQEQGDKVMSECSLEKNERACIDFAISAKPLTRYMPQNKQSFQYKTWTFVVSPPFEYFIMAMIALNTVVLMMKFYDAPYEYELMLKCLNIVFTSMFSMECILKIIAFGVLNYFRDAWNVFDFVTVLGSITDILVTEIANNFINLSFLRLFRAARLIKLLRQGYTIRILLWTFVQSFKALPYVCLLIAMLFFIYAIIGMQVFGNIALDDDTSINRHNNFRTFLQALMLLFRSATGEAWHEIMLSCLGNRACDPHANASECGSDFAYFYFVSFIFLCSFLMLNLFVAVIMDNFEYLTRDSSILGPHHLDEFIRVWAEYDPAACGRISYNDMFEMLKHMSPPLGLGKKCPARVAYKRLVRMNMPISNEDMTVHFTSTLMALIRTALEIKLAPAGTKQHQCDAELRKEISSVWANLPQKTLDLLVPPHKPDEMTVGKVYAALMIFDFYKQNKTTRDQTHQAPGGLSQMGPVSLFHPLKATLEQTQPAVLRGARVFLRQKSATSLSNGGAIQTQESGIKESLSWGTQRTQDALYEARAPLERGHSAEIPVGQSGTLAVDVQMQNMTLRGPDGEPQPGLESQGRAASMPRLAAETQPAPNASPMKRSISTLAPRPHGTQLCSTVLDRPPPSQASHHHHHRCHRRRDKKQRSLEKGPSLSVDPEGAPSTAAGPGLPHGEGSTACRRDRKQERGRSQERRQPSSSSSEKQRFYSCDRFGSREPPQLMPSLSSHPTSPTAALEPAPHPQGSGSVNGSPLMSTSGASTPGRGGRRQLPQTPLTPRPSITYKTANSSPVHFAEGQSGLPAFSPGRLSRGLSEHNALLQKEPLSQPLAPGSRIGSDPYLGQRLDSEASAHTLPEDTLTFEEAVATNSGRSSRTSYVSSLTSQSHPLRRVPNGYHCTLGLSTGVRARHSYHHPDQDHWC
# Columns and labels:
# [1] = biological target: T1, N-type calcium channel (Mus musculus, UniProt O55017); set-up: species or system mice; details: in vivo
# T1 construct: Presynaptic calcium channels have been implicated in the release of neuropeptides from primary afferent fibers; endogenous in cells; host or cells: living mice, primary afferent terminals / spinal cord (intrathecal co-injection with morphine)
# [2] = biological target: N-type calcium channel (Homo sapiens, UniProt Q00975); details: in vivo; cited from earlier work
substance,measurement,setting,value
ω-Conotoxin GVIA,scratching induced by morphine,[1],significantly inhibited
same,antinociceptive effect,[2],has been reported to have an antinociceptive effect
same,effect on antinociceptive effect of morphine,[2],potentiate the antinociceptive effect of morphine
